Experimental data: patent USRE42152E1, “Aromatic-linked polyamine macrocyclic compounds with anti-HIV activity” (Genzyme Corporation, priority 1992, dated 2011)

Tested on: HIV uncoating (or fusion)
Assay: Sensitivity of viral RNA from freshly infected MT4 cells to RNase degradation (uncoating)
Assay type: cell-based
Details: radiolabelled viral particles, RNA harvested 4 hours after infection
Excerpt: It was reasoned that if tincoating (fusion) was hampered, the viral capsid (or envelope) proteins would remain associated with the viral RNA genome and thus the RNA should be protected against RNase attack.

In the case of Cc1cn([C@H]2C[C@H](N=[N+]=[N-])[C@@H](CO)O2)c(=O)[nH]c1=O [AZT, reference compound], the “resistance of viral RNA to degradation by RNase” value is reported as “did not show this increased resistance”.
